Results of unrelated studies side by side (data: NIAID ChemDB).

All rows: tests in culture; agent: Rhinovirus; measure: EC50

ECn: concentration that inhibits the pathogen or its effect by n%.

structure | method | strain | cell line | value
CSc1nsc(-c2ccc(OS(=O)(=O)c3ccc(C)cc3)cc2)c1C#N | cytopathic effect | Serotype 29 (group B) | HELA-OHIO | 1 µM
CSc1nsc(-c2ccc(OCCCOc3ccc(C#N)cc3)cc2)c1C#N | cytopathic effect | Serotype 39 (group B) | HELA-OHIO | >2 µM
Fc1cccc(Cn2cnc3c(Nc4cccc(F)c4)nc(C(F)(F)F)nc32)c1 | plaque count | Serotype 54 | M-HELA | >2.5 µM
COc1ccc(-c2snc(SC)c2C#N)cc1 | cytopathic effect | Serotype 72 (group A) | HELA-OHIO | >12 µM
CN(C)c1nc(C(F)(F)F)nc2c1ncn2Cc1ccc(C(F)(F)F)cc1 | plaque count | TYPE 1B | M-HELA | 0.11 µM
CCOC(=O)c1ccc(OCCCCOc2ccc(-c3snc(SC)c3C#N)cc2)cc1 | cytopathic effect | Serotype 85 (group B) | HELA-OHIO | >2 µM
CSc1nsc(-c2ccc(OC(C)(C)C)cc2)c1C#N | cytopathic effect | Serotype 42 (group A) | HELA-OHIO | >40 µM
CCN(c1cccc(F)c1)c1nc(C(F)(F)F)nc2c1ncn2Cc1cccc(F)c1 | plaque count | Serotype 5 | M-HELA | 11 µM
CSc1nsc(-c2ccc(OCCCCOc3ccccc3)cc2)c1C#N | cytopathic effect | Serotype 29 (group B) | HELA-OHIO | >20 µM
Cc1ccc(Cn2cnc3c(N(C)C)nc(C(F)(F)F)nc32)cc1 | plaque count | TYPE 1B | M-HELA | 0.03 µM
Cc1cc(CCCOc2c(C)cc(-c3noc(C(F)(F)F)n3)cc2C)on1 | cytopathic effect / visual reading | Isolate 9 | OHIO HELA-I | 0.22 µg/mL
CN(C)c1nc(C(F)(F)F)nc2c1ncn2Cc1ccc(Cl)c(N)c1 | plaque count | Serotype 31 | M-HELA | >8 µM
CSc1nsc(-c2ccc(OCCOc3ccc([N+](=O)[O-])cc3)cc2)c1C#N | cytopathic effect | Serotype 14 (group A) | HELA-OHIO | >2 µM
CCO/N=C/c1ccc(OCCC2CCN(c3ccc(Cl)nn3)CC2)cc1 | neutral red | 16/60 (ICAM-1 receptor group 4) | KB | 0.023 µM
CN(C)c1ccc(Cn2cnc3c(N(C)C)nc(C(F)(F)F)nc32)cc1 | plaque count | Serotype 31 | M-HELA | >8 µM
CSc1nsc(-c2ccc(OCCOc3ccc(C#N)cc3)cc2)c1C#N | cytopathic effect | Serotype 63 (group B) | HELA-OHIO | >2 µM
CN(C)c1nc(C(F)(F)F)nc2c1ncn2Cc1ccc(F)cc1 | plaque count | Serotype 1B | M-HELA | 0.05 µM
Cc1cc(CCCCCOc2c(Cl)cc(C3=NCCO3)cc2Cl)on1 | plaque count | TYPE 47 | HeLa | 0.048 µg/mL
CCOC(=O)c1ccc(OCCCOc2ccc(-c3snc(SC)c3C#N)cc2)cc1 | cytopathic effect | Serotype 85 (group B) | HELA-OHIO | >2 µM
CN(C)c1nc(C(F)(F)F)nc2c1ncn2Cc1ccc(Br)cc1 | plaque count | Serotype 19 | M-HELA | >8 µM

2 of the rows above, restated:

structure	method	strain	cell line	value
CSc1nsc(-c2ccc(OCCCCOc3ccccc3)cc2)c1C#N	cytopathic effect	Serotype 29 (group B)	HELA-OHIO	>20 µM
CN(C)c1nc(C(F)(F)F)nc2c1ncn2Cc1ccc(Br)cc1	plaque count	Serotype 19	M-HELA	>8 µM

Lines come from different laboratories, so protocols vary.